Test results: article PMC10891539, “Plant Extracts and Phytochemicals from the Asteraceae Family with Antiviral Properties” (Molecules, 2024)
Values joined by “and” are separate entries in the source; they are usually repeats but may differ in a detail not shown here. Identical values can stand only once.

System: DENV-2
Experiment: Antiviral activity, virus yield inhibition assay (plaque assay) against DENV-2 in Vero cells
Format: cell-based, dengue virus (DENV-2 strain NGC)
Conditions: pure phytochemicals; selectivity index: ratio CC50/EC50
Experimental: Figure 3 Antiviral activity of dichloromethane (A) and methanolic extracts (B) and against DENV-2 in Vero cells. Cells were infected with DENV-2 (m.o.i. 0.1 PFU/cell) and, after 1 h adsorption at 37 °C, were treated with medium containing different dilutions of the dichloromethane extracts or vehicle. After 48h of infection, viral yield was determined via plaque assay. […] Results are expressed as the mean values ± standard deviation (SD).
Figure 4 Antiviral activity of pure compounds against DENV-2 in Vero cells. Cells were infected with DENV-2 (m.o.i. 0.1 PFU/cell) and, after 1 h adsorption at 37 °C, were treated with medium containing different dilutions of the pure compounds or vehicle (dimethyl sulfoxide). After 48 h of infection, viral yield was determined via plaque assay. Results are expressed as the mean values ± standard deviation (SD).
Vero (African green monkey kidney, ATCC CCL-81) cells were grown in Eagle’s minimum essential medium (MEM, Gibco™ Thermo Fisher Scientific, Waltham, MA, USA) supplemented with 5% heat-inactivated newborn bovine serum (NBS, Gibco™ Thermo Fisher Scientific, Carlsbad, CA, USA) and 1.5 g/L of sodium bicarbonate in a 5% CO2 atmosphere. For the maintenance medium (MM), the serum concentration was reduced to 1.5%. The C6/36 HT mosquito cell line from Aedes albopictus (ATCC CRL-1660), adapted to grow at 33 °C, was cultured in L-15 Medium (Leibovitz) supplemented with 0.3% tryptose phosphate broth, 0.02% glutamine, 1% MEM non-essential amino acids solution, and 5% FBS. The original stock of DENV-2 strain NGC was prepared in C6/36 cells and titrated via plaque formation in Vero cells.
Antiviral activity was evaluated with a virus yield inhibition assay. […] The concentration of the solvent used for the control was the maximum present in the highest concentration of the extract or compound evaluated. […] Finally, cell monolayers were fixed with 10% formaldehyde, washed, and stained with a 1% solution of crystal violet, and PFU were counted. […]

C=C1CC[C@H]2C(=C)C(=O)O[C@@H]2[C@H]2C(C)=CC(=O)[C@@H]12 [Compound 6, 2-oxo-8-deoxyligustrin]
SI: 5.9 and 5.86

C=C1C(=O)O[C@@H]2/C=C(\C)[C@@H](O)C/C=C(\C)C[C@@H](OC(=O)/C(=C/CO)COC(C)=O)[C@@H]12 [Compound 7, santhemoidin C]
SI: 6.7 and 6.74

C=C(C)c1cc2cc(C(C)=O)c(O)cc2o1 [Compound 8, euparin]
SI: > 73.4
